Assay results from US20240350522A1, “HYGROMYCIN A FOR TREATMENT OF DISEASES AND INFECTIONS” (FLIGHTPATH BIOSCIENCES, INC., priority 2021, published 2024).

Columns and labels:
Assay in all cases: Kirby-Bauer diffusion assay
Assay type in all cases: cell-based, Fusobacterium nucleatum
Details in all cases: linear regression
F. nucleatum animalis = tested on: F. nucleatum animalis
Procedure: (§1) Three representatives of 6 subspecies of Fusobacterium nucleatum (F. nucleatum) for a total of 18 strains were tested in the experiment. The sub species and strains are described in Table 2.
(§2) All strains were verified by 16S V3/V6 sequence analysis prior to use. The methods described herein were performed in an anaerobic chamber at 37° C. All media and plates were degassed prior to use.
(§3) Hygromycin A (Hyg A) discs were prepared by solubilizing Hyg A in distilled water and sterile filtered. Clindamycin was used as a positive control. Defined amounts of hygromycin A (40, 20, 10 or 5 micrograms), clindamycin (2 micrograms) or sterile distilled water were absorbed onto Kirby-Bauer discs in a biosafety cabinet.
(§4) An overnight culture was grown in Wilkins-Chalgren (WC) broth and back-diluted 1:10 in fresh broth. When an OD 600 reading reached 0.5, 300 μL of the log phase culture was plated onto WC agar plates. The plates were sectioned into quadrants and a Kirby-Bauer (KB) disc impregnated with a defined amount of hygromycin A was placed in each quadrant. Plates were prepared thus in triplicate and the four amounts of hygromycin A were 40, 20 10 and 5 micrograms. The same volume of culture was spread on fourth plate sectioned into six sections for three positive and three negative controls. KB discs with water served as negative controls and KB discs impregnated with 2 micrograms of clindamycin served as positive controls. […] Table 3, Table 4, Table 5, Table 6, Table 7, Table 8 show the mean size of zone inhibitions for each of the subspecies tested using increasing concentrations of hygromycin A where the standard error of mean is represented in parenthesis.
(§5) The amount of hygromycin A was plotted against the size of the zone of inhibition for each strain tested.

F. nucleatum fusiforme = tested on: F. nucleatum fusiforme
Procedure: as §1, §2, §3, §4, §5

F. nucleatum nucleatum = tested on: F. nucleatum nucleatum
Procedure: as §1, §2, §3, §4, §5

[1] = tested on: F. nucleatum periodonticum
Procedure: as §1, §2, §3, §4, §5

F. nucleatum polymorphum = tested on: F. nucleatum polymorphum
Procedure: as §1, §2, §3, §4, §5

F. nucleatum vincentii = tested on: F. nucleatum vincentii
Procedure: as §1, §2, §3, §4, §5

Compound: CC(=O)[C@H]1O[C@@H](Oc2ccc(/C=C(\C)C(=O)N[C@@H]3[C@H](O)[C@@H](O)[C@H]4OCO[C@H]4[C@@H]3O)cc2O)[C@@H](O)[C@@H]1O [Hyg A, Hygromycin A]
- Slope, zone of inhibition (in mm) versus amount of hygromycin A (F. nucleatum animalis; strain 7_1): 0.19
- Slope, zone of inhibition (in mm) versus amount of hygromycin A (F. nucleatum animalis; strain 218A8): 0.65
- Slope, zone of inhibition (in mm) versus amount of hygromycin A (F. nucleatum animalis; strain CRC 7_3JVN3C1): 0
- Slope, zone of inhibition (in mm) versus amount of hygromycin A (F. nucleatum fusiforme; strain 203C15): 0.68
- Slope, zone of inhibition (in mm) versus amount of hygromycin A (F. nucleatum fusiforme; strain 203L25): 0.49
- Slope, zone of inhibition (in mm) versus amount of hygromycin A (F. nucleatum fusiforme; strain 203L30): 0.21
- Slope, zone of inhibition (in mm) versus amount of hygromycin A (F. nucleatum nucleatum; strain 2_3 FMU 1): 0.46
- Slope, zone of inhibition (in mm) versus amount of hygromycin A (F. nucleatum nucleatum; strain 203L34): 0.49
- Slope, zone of inhibition (in mm) versus amount of hygromycin A (F. nucleatum nucleatum; strain 25586): 0.38
- Slope, zone of inhibition (in mm) versus amount of hygromycin A ([1]; strain 2_1_31 EAV015): 0.26
- Slope, zone of inhibition (in mm) versus amount of hygromycin A ([1]; strain 3_1_7B): 0.27
- Slope, zone of inhibition (in mm) versus amount of hygromycin A ([1]; strain 209B32): 0.35
- Slope, zone of inhibition (in mm) versus amount of hygromycin A (F. nucleatum polymorphum; strain 13_3C EAV005): 0.29
- Slope, zone of inhibition (in mm) versus amount of hygromycin A (F. nucleatum polymorphum; strain 203L28): 0.27
- Slope, zone of inhibition (in mm) versus amount of hygromycin A (F. nucleatum polymorphum; strain 203L29): 0.23
- Slope, zone of inhibition (in mm) versus amount of hygromycin A (F. nucleatum vincentii; strain 3/1/36A2): 0.24
- Slope, zone of inhibition (in mm) versus amount of hygromycin A (F. nucleatum vincentii; strain 215A9): 0
- Slope, zone of inhibition (in mm) versus amount of hygromycin A (F. nucleatum vincentii; strain CC53): 0.28
